{
  "source": "paper PMC6838151",
  "about": "“New diphenylphosphane derivatives of ketoconazole are promising antifungal agents” (Scientific Reports, 2019)",
  "origin": "cited, not measured here",
  "test_system": "HepG2 cells",
  "conditions": "cited from earlier work",
  "data": [
    {"smiles": "CC(=O)N1CCN(c2ccc(OCC3COC(Cn4ccnc4)(c4ccc(Cl)cc4Cl)O3)cc2)CC1", "note": "(stereo not shown) [Ke, ketoconazole]", "values": [
      {"measurement": "concentration at which cytotoxic effects started to be noticed", "value": 50, "unit": "µM"}
    ]}
  ]
}
